Pooled drug test results. Numbers come from NIAID ChemDB, via PubChem.

Common to all: tests in culture; organism: HIV-2; cell line: CEM; read-out: EC50

Blank or dashed fields: not listed here. Neighbouring rows are from separate reports. ECn is the concentration giving n% inhibition of infection, replication or growth.

smiles	strain or isolate	read by	result
CC(C)OC(=O)[C@H](C)NP(=O)(OC[C@@H]1C=CC(n2ccc(=O)[nH]c2=O)O1)Oc1ccccc1	ROD	syncytia	>250 µM
Nc1nc(N)c(-c2ccccc2)c(OCCOCP(=O)(O)O)n1	ROD	syncytia	≥300 µM
Cc1ccc(C)c(C(Sc2cccc[n+]2[O-])c2ccccc2)c1	ROD	syncytia	>20 µg/mL
O=C(O)CN(CCOCCOCCN1CC2c3cc4c5c6c3-c3c(cc7c8c3C63CN(CCOCCOCCN(CC(=O)O)CC(=O)O)CC36c3c-5c(cc5ccc9cc(c-8c6c9c35)C7)C4)C2C1)CC(=O)O	ROD	cytopathic effect	>4 µM
Nc1nc(OC[C@H]2CC[C@@H](COCc3ccccc3)O2)c2[nH]cnc2n1	ROD	syncytia	>50 µM
O=C(c1ccc(Cl)c(Cl)c1)c1ccc2[nH]c(=O)sc2c1	ROD	syncytia	>1.6 µg/mL
NC/C=C/Cn1cc(F)c(=O)[nH]c1=O	-	syncytia	>100 µM
O=C1NS(=O)(=O)N(Cc2ccccc2)c2sc(-c3ccccc3)cc21	-	-	>400 µg/mL
Cc1ccc[n+]([O-])c1S(=O)(=O)C(C)c1cccc([N+](=O)[O-])c1C	ROD	syncytia	60 µg/mL
Cc1ccc(C)c(CS(=O)(=O)c2cccc[n+]2[O-])c1	ROD	syncytia	10 µg/mL
CCCCCCCCCCCCCCC(=O)Oc1ccc(OP(=O)(OCc2ccc(OC(=O)CC)cc2)OP(=O)(O)OP(=O)(O)OC[C@@H]2C=C[C@H](n3cc(C)c(=O)[nH]c3=O)O2)cc1	ROD	syncytia / visual reading	0.39 µM
CC(C)OC(=O)[C@H](C)NP(=O)(OC[C@@H]1C=CC(n2ccc(=O)[nH]c2=O)O1)Oc1cccc2ccccc12	ROD	syncytia	185 µM
CC(=O)OCCOCN1c2cc(-c3ccccc3)sc2C(=O)N(Cc2ccccc2)S1(=O)=O	-	-	>400 µg/mL
Nc1nc(N)n(CCOCP(=O)(O)O)c(=O)c1-c1ccccc1	ROD	syncytia	≥300 µM
Cc1cccc(CS(=O)(=O)c2cccc[n+]2[O-])c1	EHO	syncytia	14 µg/mL
CO[C@H]1C[C@@H](n2cnc3c(N)ncnc32)[C@H](O)[C@@H]1O	ROD	-	>250 µg/mL
CCCCCO[C@]12CS(=O)(=O)O[C@@]13[C@@H](CN2)O[C@@H](n1cc(C)c(=O)[nH]c1=O)[C@@H]3O	ROD	-	>250 µM
CCOC(=O)Cc1c(N)nc(N)nc1OCCOCP(=O)(O)O	ROD	syncytia	78 µM
O=C1c2cc(-c3ccccc3)sc2N(Cc2ccccc2)S(=O)(=O)N1CCOCCO	-	-	>400 µg/mL
O=[N+]([O-])c1ccc[n+]([O-])c1SCc1ccccc1	EHO	syncytia	>20 µg/mL
Nc1nc(Cl)cc(OC[C@H]2O[C@H](COCc3ccccc3)[C@@H](OCc3ccccc3)[C@H]2OCc2ccccc2)n1	ROD	syncytia	>250 µM
Cc1ccc(C)c(C(Cl)S(=O)(=O)c2c(C)ccc[n+]2[O-])c1	ROD	syncytia	>100 µg/mL
Nc1ncnc2c1ccn2[C@H]1C[C@@H](O)[C@H](O)[C@@H]1O	ROD	-	>250 µg/mL
CCCCC(=O)c1ccc2c(c1)sc(=O)n2CCN1CCOCC1	ROD	syncytia	>8 µg/mL
Cc1ccc(C)c(CS(=O)c2c(C)ccc[n+]2[O-])c1	ROD	syncytia	≥20 µg/mL
COc1cc(OC[C@H]2CC[C@@H](COCc3ccccc3)O2)nc(N)n1	ROD	syncytia	>10 µM
O=C1c2ccccc2C(=O)N1C/C=C/Cn1cc(F)c(=O)[nH]c1=O	-	syncytia	>100 µM
Nc1nc(N)c(Cc2ccccc2)c(OCCOCP(=O)(O)O)n1	ROD	syncytia	≥300 µM
Nc1ccc([C@H]2C[C@H](O)[C@@H](CO)O2)c(F)c1	-	-	>250 µM
COC(=O)[C@H](C)NP(=O)(OC[C@@H]1C=CC(n2ccc(=O)[nH]c2=O)O1)Oc1cccc2ccccc12	ROD	syncytia	>10 µM
O=C(c1cccc(F)c1)c1ccc2[nH]c(=O)oc2c1	ROD	syncytia	>8 µg/mL
Cc1ccc(C)c(CS(=O)(=O)c2cccc[n+]2[O-])c1	ROD	syncytia	10 µg/mL
Nc1nccc(OC[C@H]2CC[C@@H](CO)O2)n1	ROD	syncytia	>250 µM
Cc1ccc(C)c(C(C(N)=O)S(=O)(=O)c2cccc[n+]2[O-])c1	ROD	syncytia	>20 µg/mL
Cc1cn([C@@H]2O[C@@H]3CN[C@@]4(OCC5CCOC5)CS(=O)(=O)O[C@@]34[C@H]2O)c(=O)[nH]c1=O	ROD	-	>250 µM
N#CCc1c(N)nc(N)nc1OCCOCP(=O)(O)O	ROD	syncytia	≥300 µM
CCCCCCCCCCCCCCC(=O)Oc1ccc(COP(=O)(Oc2ccc(OC(=O)CCCC(=O)OCCOCCOCCOC)cc2)OP(=O)(O)OP(=O)(O)OC[C@@H]2C=C[C@H](n3cc(C)c(=O)[nH]c3=O)O2)cc1	ROD	syncytia / visual reading	0.65 µM
COc1cc(OC[C@H]2CC[C@@H](CO)O2)nc(N)n1	ROD	syncytia	>50 µM
O=C(c1cccc(F)c1)c1ccc2c(c1)oc(=O)n2CCN1CCCCC1	ROD	syncytia	≥5.1 µg/mL
Cc1c(N)nc(N)n(CCOCP(=O)(O)O)c1=O	ROD	syncytia	≥300 µM
C[C@H](NP(=O)(OC[C@@H]1CCC(n2ccc(=O)[nH]c2=O)O1)Oc1ccccc1)C(=O)OCc1ccccc1	ROD	syncytia	50.8 µM
CCCCO[C@]12CS(=O)(=O)O[C@@]13C(CN2)O[C@@H](n1cc(C)c(=O)[nH]c1=O)[C@@H]3O[Si](C)(C)C(C)(C)C	ROD	-	>10 µM
CC(C)c1ccc(C(C)C)c(CS(=O)c2cccc[n+]2[O-])c1	ROD	syncytia	≥4 µg/mL
O=C(c1ccccc1)c1ccc2c(c1)oc(=O)n2CCN1CCCCC1	ROD	syncytia	>8 µg/mL
CC(c1ccc(S(C)(=O)=O)cc1)S(=O)c1cccc[n+]1[O-]	ROD	syncytia	>4 µg/mL
Cc1ccc(C)c(CSc2c(Cl)ccc[n+]2[O-])c1	ROD	syncytia	>20 µg/mL
Cc1ccc[n+]([O-])c1S(=O)(=O)Cc1ccccc1	ROD	syncytia	>20 µg/mL
Cn1c(=O)sc2cc(C(=O)c3ccc(Cl)c([N+](=O)[O-])c3)ccc21	ROD	syncytia	3.5 µg/mL
CC(=O)OCCOCCN1C(=O)c2cc(-c3ccccc3)sc2N(Cc2ccccc2)S1(=O)=O	-	-	>400 µg/mL
O=[N+]([O-])c1ccc(CS(=O)(=O)c2cccc[n+]2[O-])cc1	ROD	syncytia	>4 µg/mL
CCS[C@]12CS(=O)(=O)O[C@@]13[C@@H](CN2)O[C@@H](n1cc(C)c(=O)[nH]c1=O)[C@@H]3O	ROD	-	>250 µM
Nc1cc(OC[C@H]2CC[C@@H](COCc3ccccc3)O2)ncn1	ROD	syncytia	>50 µM
Cn1c(=O)sc2cc(C(=O)c3cccc(F)c3)ccc21	ROD	syncytia	>40 µg/mL
Nc1nc(N)n(CCOCP(=O)(O)O)c(=O)c1Cc1ccccc1	ROD	syncytia	≥300 µM
CCCCC(=O)Oc1ccc(COP(=O)(Oc2ccc(OC(=O)CCC(=O)OCCOCCOCCOC)cc2)OP(=O)(O)OP(=O)(O)OC[C@@H]2C=C[C@H](n3cc(C)c(=O)[nH]c3=O)O2)cc1	ROD	syncytia / visual reading	0.76 µM
Cc1cccc(C(C#N)S(=O)c2cccc[n+]2[O-])c1	ROD	syncytia	>0.8 µg/mL
C#CCO[C@]12CS(=O)(=O)O[C@@]13[C@@H](CN2)O[C@@H](n1cc(C)c(=O)[nH]c1=O)[C@@H]3O[Si](C)(C)C(C)(C)C	ROD	-	>25 µM
COc1ccc(C)cc1CS(=O)(=O)c1cccc[n+]1[O-]	ROD	syncytia	40 µg/mL
O=S(=O)(Cc1ccccc1)c1c(Cl)ccc[n+]1[O-]	ROD	syncytia	>0.8 µg/mL
O=C1c2ccccc2C(=O)N1C/C=C/Cn1cc(C(F)(F)F)c(=O)[nH]c1=O	-	syncytia	>100 µM
O=[N+]([O-])c1ccc[n+]([O-])c1SCc1ccccc1	ROD	syncytia	≥20 µg/mL
Nc1nc2c(ncn2COCCO)c(=O)[nH]1	-	-	>400 µg/mL
COc1cc(CS(=O)(=O)c2cccc[n+]2[O-])cc(OC)c1OC	ROD	syncytia	≥20 µg/mL
NC/C=C/Cn1cnc2c(N)ncnc21	-	syncytia	>50 µM

A second listing of 5 rows from above:

smiles | strain or isolate | read by | result
COc1cc(OC[C@H]2CC[C@@H](CO)O2)nc(N)n1 | ROD | syncytia | >50 µM
COC(=O)[C@H](C)NP(=O)(OC[C@@H]1C=CC(n2ccc(=O)[nH]c2=O)O1)Oc1cccc2ccccc12 | ROD | syncytia | >10 µM
Nc1ccc([C@H]2C[C@H](O)[C@@H](CO)O2)c(F)c1 | - | - | >250 µM
CC(c1ccc(S(C)(=O)=O)cc1)S(=O)c1cccc[n+]1[O-] | ROD | syncytia | >4 µg/mL
Cc1ccc(C)c(CSc2c(Cl)ccc[n+]2[O-])c1 | ROD | syncytia | >20 µg/mL